From patent US20120122128A1 (ALLERGAN, published 2012)

Amino acid sequences for entries named in this document (tags omitted). Residues count along the entry.
UniProt P60881, 1-197 limits assumed: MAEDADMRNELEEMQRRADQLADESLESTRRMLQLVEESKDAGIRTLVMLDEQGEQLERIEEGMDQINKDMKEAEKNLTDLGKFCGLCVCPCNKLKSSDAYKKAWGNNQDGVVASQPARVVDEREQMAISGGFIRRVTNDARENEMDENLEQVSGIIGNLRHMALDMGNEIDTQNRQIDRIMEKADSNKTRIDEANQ

B1: α-SNAP-25 monoclonal antibody 3C3E2 (antibody, V domains shown)
VH: QVQLQESGPELVKPGASVKMSCKASGYTFTNYVIHWVKQKPGQGLEWIGYINPYNDGSKYNEKFKGKASLTSDKSSSTAYMELSSLTSEDSAVYYCARHLANTYYYFDYWGQGTTLTVSS
VL: DVVLTQSPATLSVTPGDRVSLSCRASQNIGNYLHWYQQKSHESPRLLIKYASQSISGIPSRFSGSGSVTDFTLNINSVETEDFGMYFCQQSDTWPLTFGAGTKLELKR
B2: α-SNAP-25 monoclonal antibody 1D3B8 (antibody, V domains shown)
VH: VKLQESGAELVKPGASVKISCKASGYIFTDHALHWVRQKPEQGLEWIGYIFPGNGNIEYNEKFKGKATLTADKSSSTAYMQLNSLTSGDSAMYFCKKMDYWGQGTTVTVSS
VL: DVLMTQTPLSLPVSLGDQASISCRSSQSIVHSNGNTYLEWYLQKPGQSPKLLIYKVSNRFSGVPDRFSGSGSGTDFTLKISRVEAEDLGVYYCFQGSHVPPTFGAGTKLELKR

Columns and labels:
[1] = biological target: T1, SNAP-25197 cleavage product in PC12 cells (rat (PC12 cell line), UniProt P60881 1-197); assay: cell-based cleavage assay, Western blot, ascites
[2] = biological target: T1, SNAP-25197 cleavage product in PC12 …; assay: immunocytochemistry of PC12 cells +/- GFP-BoNT/A-LC, ascites 1:10

Row | Binder | binding result [1] | binding result [2]
1 | B1 | binds | 
2 | B2 |  | binds
